A mixed list of measured activities; the numbers were collected in NIAID ChemDB.

Common to all: whole-cell or culture tests; agent: Mycobacterium avium complex; measure: MIC50

Rows are shuffled and stem from different studies.

SMILES,strain or isolate,value
CCn1cc(C(=O)O)c(=O)c2cc(F)c(N3CCNCC3)cc21,16 isolates,50 µg/mL
Cc1cc(=O)c(C(=O)NC(C(=O)N[C@@H]2C(=O)N3C(C(=O)O)=C(CSc4nnnn4C)CS[C@H]23)c2ccc(O)cc2)c[nH]1,,22.7 µg/mL
CC(C)N1CCN(c2cc3c(cc2F)c(=O)c(C(=O)O)cn3C(C)(C)C)CC1,14 strains,2 µg/mL
CNC1CCCN(c2c(F)cc3c(=O)c(C(=O)O)cn(C4CC4)c3c2OC)C1,16 isolates,12.5 µg/mL
CCC1CCN(c2c(F)cc3c(=O)c(C(=O)O)cn(C4CC4)c3c2F)C1,,2 µg/mL
CO[C@H]1/C=C/O[C@@]2(C)Oc3c(C)c(O)c4c(O)c(c5c(c4c3C2=O)NC2(CCN(CC(C)C)CC2)N=5)=NC(=O)/C(C)=C\C=C\[C@H](C)[C@H](O)[C@@H](C)[C@@H](O)[C@@H](C)[C@H](OC(C)=O)[C@@H]1C,10 isolates (HIV+),0.125 µg/mL
CCN(CC)CCN=c1cc2n(-c3ccc(Cl)cc3)c3ccccc3nc-2cc1Nc1ccc(Cl)cc1,,0.02 µg/mL
CCN1CCN(c2cc3c(cc2F)c(=O)c(C(=O)O)cn3C2CC2)CC1,14 strains,2 µg/mL
CN1CCCC1CCN=c1cc2n(-c3ccc(Cl)cc3)c3ccccc3nc-2cc1Nc1ccccc1,10 srtains,0.4 µg/mL
CCC1CCN(c2c(F)cc3c(=O)c(C(=O)O)cn(C4CC4)c3c2F)C1,14 strains,2 µg/mL
C[C@H]1COc2c(N3CCN(C)CC3)c(F)cc3c(=O)c(C(=O)O)cn1c23,16 isolates,12.5 µg/mL
CCC1CN(c2nc3c(cc2F)c(=O)c(C(=O)O)cn3C(C)(C)C)CCN1,14 strains,2 µg/mL
O=C(O)c1cn(C2CC2)c2c(F)c(N3CCC(NC4CC4)C3)c(F)cc2c1=O,14 strains,1 µg/mL
CC[C@H](C)N1CCN(c2cc(=O)c3nc4c(oc3c2)c2c(=O)c3c(O)c(C)c5c(c34)=C(O)[C@@](C)(O/C=C/[C@H](OC)[C@@H](C)[C@@H](OC(C)=O)[C@H](C)[C@H](O)[C@H](C)[C@@H](O)[C@@H](C)/C=C/C=C(/C)C(=O)N2)O5)CC1,18 strains,0.1 µg/mL
CC1CN(c2c(F)cc3c(=O)c(C(=O)O)cn(C4CC4)c3c2F)CCN1,14 strains,1 µg/mL
CCCN1CCN(c2cc(=O)c3nc4c(oc3c2)c2c(=O)c3c(O)c(C)c5c(c34)=C(O)[C@@](C)(O/C=C/[C@H](OC)[C@@H](C)[C@@H](OC(C)=O)[C@H](C)[C@H](O)[C@H](C)[C@@H](O)[C@@H](C)/C=C/C=C(/C)C(=O)N2)O5)CC1,18 strains,0.1 µg/mL
CC[C@@H](CO)NCCN[C@@H](CC)CO,32 isolates,8 µg/mL
C[C@@H]1CN(c2c(F)c(N)c3c(=O)c(C(=O)O)cn(C4CC4)c3c2F)C[C@H](C)N1,,1 µg/mL
COC(=O)[C@H]1[C@H]2C[C@@H]3c4[nH]c5cc(OC)ccc5c4CCN3C[C@H]2C[C@@H](OC(=O)c2cc(OC)c(OC)c(OC)c2)[C@@H]1OC,32 isolates,64 µg/mL
CC1CN(c2c(F)cc3c(=O)c(C(=O)O)cn(C4CC4)c3c2F)CC(C)N1,,1 µg/mL
NC(=O)c1cnccn1,,>5 µg/mL
CN1CC2CCC1CN2c1c(F)cc2c(=O)c(C(=O)O)cn(C3CC3)c2c1F,14 strains,1 µg/mL
CC1CN(c2cc3c(c(CO)c2F)c(=O)c(C(=O)O)cn3C2CC2)CCN1,,16 µg/mL
CN1CCN(CCCN=c2cc3n(-c4ccc(Cl)cc4)c4ccccc4nc-3cc2Nc2ccccc2)CC1,10 srtains,1.43 µg/mL
CCN(CC)CC1CCN(c2c(F)cc3c(=O)c(C(=O)O)cn(C4CC4)c3c2F)C1,,2 µg/mL
CC[C@H]1OC(=O)[C@H](C)[C@@H](O[C@H]2C[C@@](C)(OC)[C@@H](O)[C@H](C)O2)[C@H](C)[C@@H](O[C@@H]2O[C@H](C)C[C@H](N(C)C)[C@H]2O)[C@](C)(OC)C[C@@H](C)C(=O)[C@H](C)[C@@H](O)[C@]1(C)O,,<0.2 µg/mL
CCN=c1cc2n(-c3ccc(Cl)cc3)c3ccccc3nc-2cc1Nc1ccc(Cl)cc1,,0.09 µg/mL
CCN1CCN(c2cc3c(cc2F)c(=O)c(C(=O)O)cn3C(C)C)CC1,14 strains,≥32 µg/mL
NCC[C@H](O)C(=O)N[C@@H]1C[C@H](N)[C@@H](O[C@H]2O[C@H](CN)[C@@H](O)[C@H](O)[C@H]2O)[C@H](O)[C@H]1O[C@H]1O[C@H](CO)[C@@H](O)[C@H](N)[C@H]1O,37 strains,4 µg/mL
CCCCCCCCCCCCOC(=O)c1cc(O)c(O)c(O)c1,32 isolates,128 µg/mL
CC[C@H]1OC(=O)[C@H](C)[C@@H](O[C@H]2C[C@@](C)(OC)[C@@H](O)[C@H](C)O2)[C@H](C)[C@@H](O[C@@H]2O[C@H](C)C[C@H](N(C)C)[C@H]2O)[C@](C)(OC)C[C@@H](C)C(=O)[C@H](C)[C@@H](O)[C@]1(C)O,37 strains,0.5 µg/mL
O=C(O)c1cn(C2CC2)c2c(Cl)c(N3CCNCC3)c(F)cc2c1=O,14 strains,2 µg/mL
O=C(O)c1cn(C2CC2)c2c(F)c(N3CC4C(CO)C4C3)c(F)cc2c1=O,,8 µg/mL
O=C(O)c1cn(C2CC2)c2cc(N3CCNCC3)c(F)cc2c1=O,32 isolates,4 µg/mL
CC1CCN(c2c(F)cc3c(=O)c(C(=O)O)cn(C4CC4)c3c2F)C1,14 strains,2 µg/mL
Nc1ccn([C@@H]2O[C@H](CO)[C@@H](O)[C@@H]2O)c(=O)n1,32 isolates,>128 µg/mL
CO[C@H]1/C=C/O[C@@]2(C)Oc3c(C)c(O)c4c(O)c(c5c(c4c3C2=O)NC2(CCN(CC(C)C)CC2)N=5)=NC(=O)/C(C)=C\C=C\[C@H](C)[C@H](O)[C@@H](C)[C@@H](O)[C@@H](C)[C@H](OC(C)=O)[C@@H]1C,37 strains,0.25 µg/mL
CC1COc2c(N3CCN(C)CC3)c(F)cc3c(=O)c(C(=O)O)cn1c23,16 isolates,12.5 µg/mL
CCCC[C@@H]1CC(=O)[C@]2(O)O[C@@H]3[C@@H](NC)[C@@H](O)[C@@H](NC)[C@H](O)[C@H]3O[C@@H]2O1,,10.4 µg/mL
COc1ccc2c(c1)c(CC(=O)O)c(C)n2C(=O)c1ccc(Cl)cc1,32 isolates,>128 µg/mL
CN(C)C1CCN(c2c(F)cc3c(=O)c(C(=O)O)cn(C4CC4)c3c2F)C1,14 strains,0.5 µg/mL
CC(C)(C)n1cc(C(=O)O)c(=O)c2cc(F)c(N3CCNCC3)nc21,,4 µg/mL
CC(C)N=c1cc2n(-c3ccc(Cl)cc3)c3ccccc3nc-2cc1Nc1ccc(Cl)cc1,,0.13 µg/mL
CC1CN(c2c(F)cc3c(=O)c(C(=O)O)cn(C4CC4)c3c2F)CC(C)N1,14 strains,1 µg/mL
NC1CN(c2cc3c(cc2F)c(=O)c(C(=O)O)cn3C2CC2)CC1C1CC1,,8 µg/mL

A second listing of 3 rows from above:

| SMILES | strain or isolate | value |
|---|---|---|
| CC[C@H]1OC(=O)[C@H](C)[C@@H](O[C@H]2C[C@@](C)(OC)[C@@H](O)[C@H](C)O2)[C@H](C)[C@@H](O[C@@H]2O[C@H](C)C[C@H](N(C)C)[C@H]2O)[C@](C)(OC)C[C@@H](C)C(=O)[C@H](C)[C@@H](O)[C@]1(C)O | 37 strains | 0.5 µg/mL |
| C[C@@H]1CN(c2c(F)c(N)c3c(=O)c(C(=O)O)cn(C4CC4)c3c2F)C[C@H](C)N1 |  | 1 µg/mL |
| COc1ccc2c(c1)c(CC(=O)O)c(C)n2C(=O)c1ccc(Cl)cc1 | 32 isolates | >128 µg/mL |

A number after MIC or MFC names an inhibition level or a share of isolates. Blank or dashed fields: not listed here.